One substance from patent publication US20220220466 can be followed below.

For the data set, the target named is GST-tagged rat VAMP2 (1-93) (UniProt P63045).

“LC/X generated from catalytically active LCHN/X by thrombin activation and DTT”: the “cleavage of recombinant GST-VAMP2 (SDS-PAGE, Coomassie blue staining)” value is “Fusion with nanobodies did not affect cleavage of VAMP2 by LC/X”.
